In the experiment the target is Malayan pangolin (Manis javanica) DPP4 (MjDPP4) ectodomain (Manis javanica (Malayan pangolin)). The experiment in a line: SPR. In general terms: Surface plasmon resonance follows binding to a sensor surface in real time, without labels.

As a reminder, the Kd is the free concentration of one partner at which half of the binding sites on the other are occupied at equilibrium, for simple one-to-one binding. Low readings indicate tighter binding, high ones weaker binding. In the case of “MjHKU4r-CoV-1 spike protein receptor binding domain (RBD) (domain or fragment)”, the Kd came to 170 nM.

The record behind these values is paper PMC11578449 (2024).
